Reference: publication PMC8062000, “High-throughput screening of the ReFRAME, Pandemic Box, and COVID Box drug repurposing libraries against SARS-CoV-2 nsp15 endoribonuclease to identify small-molecule inhibitors of viral activity” (PLoS ONE, 2021)

Target: SARS-CoV-2 nsp15 (Severe acute respiratory syndrome coronavirus 2, UniProt P0DTD1)
Type: binding

Structure (SMILES): COc1cccc2c1C(=O)c1c(O)c3c(c(O)c1C2=O)C[C@@](O)(C(=O)CO)C[C@@H]3O[C@H]1C[C@H](N)[C@H](O)[C@H](C)O1 [Doxorubicin]
- DSF Assay ΔTm: -0.5 °C
